Data reported in US20240109955A1 (published 2024).

Target: SARS-CoV-2 spike protein, original Wuhan strain (WA1) (SARS-CoV-2, UniProt P0DTC2 14-1273)
Experiment: cell-based or functional assay

B1: MX1078 (other)
chain 1: DTVMTQSPLSLPVTPGEPASISCRSSQSLLNSNGYNYLDWYVQKPGQSPQLLIYLGSNRASGVPDRFSGSGSGTDFTLKISRVEAEDVGVYYCMQPLQTPLFTFGPGTKVEIKGGSSGEIVLTQSPGTLSLSPGETATLSCRASQSFSSDLAWYQQKPGQAPRLLIYGASSRATGIPDRFSGSGSGTDFTLTISRLEPADFAVYYCQQYGSSPPVTFGGGTKVEIKGGGGSGGSGSGGGGSASGSGEVQLVESGGGLIQPGGSLRLSCAASGVIVSYNYMNWVRQAPGKGLEWVSVIYSGGSTFYADSVRGRFTISRDNSKNTLYLQMNSLRAEDTAVYYCARDLGPAGAFDIWGLGTMVTVSSGGSSGQVTLRESGPALVKPTQTLTLTCTFSGFSLSTRGVCVSWIRQPPGKALEWLAFIDWDDDKYYNTSLKTRLTISKDTSKNQVVLTMTNVHPVDTATYYCARISSHHGSSWCTTFDYWGQGALVTVSAASGGSGDKTHTCPPCPAPELLGGPSVFLFPPKPKDTLMISRTPEVTCVVVDVSHEDPEVKFNWYVDGVEVHNAKTKPREEQYNSYVVSVLTVLHQDWLNGKEYKCKVSNKALPAPIEKTISKAKGQPREPQVYTLPPCRDELTKNQVSLWCLVKGFYPSDIAVEWESNGQPENNYKTTPPVLDSDGSFFKKLTVDKSRWQQGNVFSCSVLHEALHSHYTQKSLSLSPG
chain 2: DTVMTQSPLSLPVTPGEPASISCRSSQSLLNSNGYNYLDWYVQKPGQSPQLLIYLGSNRASGVPDRFSGSGSGTDFTLKISRVEAEDVGVYYCMQPLQTPLFTFGPGTKVEIKGGSSGQTVVTQEPSFSVSPGGTVTLTCGLSSGSVSTAYFPSWYQQTPGQAPRTLIYGTNTRSSGVPDRFSGSILGNKAALTITGAQADDESDYYCVLYMGRGIVVFGGGTKLTVLGGGGSGGSGSGGGGSASGSGQVQLVESGGGVVQPGRSLRLSCAASGFTLSSYGMHWVRQAPGKGLEWVAVISYDGSNKYYVDSVKGRFTISRDNSKNTLYLQMNSLRAEDTAVYYCRWAYWELLPDYYYGMDVWGQGTTVTVSSGGSSGQVTLRESGPALVKPTQTLTLTCTFSGFSLSTRGVCVSWIRQPPGKALEWLAFIDWDDDKYYNTSLKTRLTISKDTSKNQVVLTMTNVHPVDTATYYCARISSHHGSSWCTTFDYWGQGALVTVSAASGGSGDKTHTCPPCPAPELLGGPSVFLFPPKPKDTLMISRTPEVTCVVVDVSHEDPEVKFNWYVDGVEVHNAKTKPREEQYNSYVVSVLTVLHQDWLNGKEYKCKVSNKALPAPIEKTISKAKGQPREPQVCTLPPSRDELTKNQVSLSCAVKGFYPSDIAVEWESNGQPENNYKTTPPVLDSDGSFFLVSKLTVDKSRWQQGNVFSCSVLHEALHSHYTQKSLSLSPG
- IC50, pseudovirus neutralization: 0.0151 µg/mL
- IC80, pseudovirus neutralization: 0.0464 µg/mL
